Anti-infective test results gathered from many reports (values: NIAID ChemDB through PubChem).

Shared fields: enzyme or target tests; species: HIV-1; protein: Protease; read-out: IC50

Blank or dashed fields: not listed here. Rows are shuffled and stem from different studies. ICn is the concentration giving n% inhibition.

compound	changes	read by	conditions	result
CC[C@H](C)[C@H](NC(=O)OC(C)(C)C)C(=O)N[C@H]1CC[C@@H](CC(=O)N[C@H](C(=O)OC)C(C)C)[C@@H]1O	-	absorbance	-	>10 µM
CC(C)C[C@H](NC(=O)[C@@H](NC(=O)CCCCCCCCCCCCCCC(=O)N[C@@H](CCCCN)C(=O)N[C@@H](Cc1ccccc1)C(=O)O)C(C)O)C(=O)N[C@@H](Cc1ccccc1)C(N)=O	-	-	-	>5.5 µM
C=CCc1ccc(O)c(-c2ccc(OC)c(CC=C)c2)c1	-	FRET	-	1000 µM
CCOC(=O)[C@]12CCC(C)(C)CC1C1=CCC3[C@@]4(C)CCC(=O)[C@@](C)(CO)C4CC[C@@]3(C)[C@]1(C)CC2	-	substrate cleavage / fluorescence	-	>100 µM
C=CCc1cc(-c2cc(CC(O)CO)ccc2O)ccc1O	-	FRET	-	1000 µM
Cc1cc(F)cc(C)c1OCC(=O)N[C@@H](Cc1ccccc1)C[C@H](O)[C@H](Cc1ccccc1)NC(=O)O[C@H]1CO[C@H]2OCC[C@H]21	-	-	-	<0.0005 µM
C[C@@H](O)[C@H](NC(=O)c1cc(=O)c2ccccc2[nH]1)C(=O)N[C@@H](Cc1ccccc1)[C@H](O)[C@@H](O)[C@H](Cc1ccccc1)NC(=O)c1cc(=O)c2ccccc2[nH]1	-	substrate cleavage	-	2 µM
CON[C@H](C(=O)NC(=O)[C@H]1N(C(=O)[C@@H](O)[C@H](Cc2ccccc2)NC(=O)[C@@H](NC(=O)[C@H](C)NC(=O)Oc2ccccc2)C(C)C)CSC1(C)C)C(C)C	-	-	-	0.018 µM
Cc1cccc(C)c1OCC(=O)N[C@@H](Cc1ccccc1)C[C@@H](O)[C@H](Cc1ccccc1)NC(=O)[C@@H](NC(=O)c1cc(=O)c2ccccc2[nH]1)c1cccs1	-	fluorescence	-	0.003 µM
CC(C)[C@H](NC(=O)[C@H](C)NC(=O)Nc1ccc(C(F)(F)F)cc1)C(=O)N[C@@H](Cc1ccccc1)C(O)C(O)[C@H](Cc1ccccc1)NC(=O)[C@@H](NC(=O)[C@H](C)NC(=O)Nc1ccc(C(F)(F)F)cc1)C(C)C	-	-	-	2 µM
Cc1cc2[nH]c(=O)[nH]c2c(C)c1OCC(=O)N[C@@H](Cc1ccccc1)C[C@H](O)[C@H](Cc1ccccc1)NC(=O)O[C@H]1CO[C@H]2OCC[C@H]21	-	-	-	<0.0005 µM
CON[C@H](C(=O)NC(=O)[C@H]1N(C[C@@H](O)[C@H](Cc2ccccc2)NC(=O)[C@@H](NC(=O)[C@H](C)NC(=O)Oc2ccccc2)C(C)C)CSC1(C)C)C(C)C	-	-	-	0.015 µM
Cc1cc2n[nH]nc2c(C)c1OCC(=O)N[C@@H](Cc1ccccc1)C[C@H](O)[C@H](Cc1ccccc1)NC(=O)O[C@H]1CO[C@H]2OCC[C@H]21	-	-	-	<0.0005 µM
CC1(C)CC[C@]2(C(=O)O)CC[C@]3(C)C(=CC[C@@H]4[C@@]5(C)C[C@@H](OC(=O)c6ccccc6)[C@H](OC(=O)c6ccccc6)C(C)(C)[C@@H]5CC[C@]43C)[C@@H]2C1	-	FRET	-	>1200 µg/mL
CC(C)[C@H](NC(=O)CNC(=O)OC(C)(C)C)C(=O)N[C@@H](Cc1ccccc1)[C@H](O)CNC[C@@H](O)[C@H](Cc1ccccc1)NC(=O)[C@@H](NC(=O)CNC(=O)OC(C)(C)C)C(C)C	-	HPLC	pH 5.5	<10 µM
CCOC(=O)[C@]12CCC(C)(C)CC1C1=CCC3[C@@]4(C)CC[C@H](OC(=O)CCC(=O)O)[C@@](C)(CO[Si](C)(C)C(C)(C)C)C4CC[C@@]3(C)[C@]1(C)CC2	-	substrate cleavage / fluorescence	-	46.1 µM
Cc1cc(N2COCC2=O)cc(C)c1OCC(=O)N[C@@H](Cc1ccccc1)C[C@H](O)[C@H](Cc1ccccc1)NC(=O)O[C@H]1CO[C@H]2OCC[C@H]21	-	-	-	<0.0005 µM
CC(C)C[C@H](NC(=O)[C@@H](NC(=O)CCCCCCCCCCCCCCC(=O)N[C@@H](CC(N)=O)C(=O)N[C@@H](Cc1ccccc1)C(=O)O)C(C)O)C(=O)N1Cc2[nH]c3ccccc3c2CC1C(=O)O	-	-	-	6.1 µM
CC[C@H](C)[C@H](NC(=O)OC(C)(C)C)C(=O)N[C@@H]1CC[C@H](CC(=O)N[C@H](C(=O)OC)C(C)C)[C@H]1O	-	absorbance	-	>10 µM
CC(C)[C@H](NC(=O)[C@H](C)NC(=O)[C@H](CO)NC(=O)OCc1ccccc1)C(=O)N[C@@H](Cc1ccccc1)[C@@H](O)[C@H](O)[C@H](Cc1ccccc1)NC(=O)[C@@H](NC(=O)[C@H](C)NC(=O)[C@H](CO)NC(=O)OCc1ccccc1)C(C)C	PR-V82F	-	-	0.058 µM
CC1(C)CC[C@]2(C(=O)O)CC[C@]3(C)C(=CC[C@@H]4[C@@]5(C)C[C@@H](OC(=O)c6ccccc6)[C@H](O)C(C)(C)[C@@H]5CC[C@]43C)[C@@H]2C1	-	FRET	-	>1200 µg/mL
CC1(C)CC[C@]2(C(=O)O)CC[C@]3(C)C(=CCC4[C@@]5(C)CC[C@H](O)[C@@](C)(CO)C5CC[C@]43C)C2C1	-	substrate cleavage / fluorescence	-	76 µM
O=C(/C=C/c1ccc(O)c2c1[C@H](C(=O)O)[C@@H](c1ccc(O)c(O)c1)O2)O[C@H](Cc1ccc(O)c(O)c1)C(=O)O	-	HPLC	-	>100 µM
CC(C)C[C@H](NC(=O)C[C@H](O)[C@H](CC1CCCCC1)NC(=O)[C@H](C)NC(=O)C1Cc2ccccc2CN1)C(=O)N[C@@H](Cc1ccccc1)C(=O)O	-	HPLC	-	0.2 µM
Cc1cc(NS(C)(=O)=O)cc(C)c1OCC(=O)N[C@@H](Cc1ccccc1)[C@@H](O)C[C@H](Cc1ccccc1)NC(=O)O[C@H]1CO[C@H]2OCC[C@H]21	-	-	-	0.012 µM
CCCCCCCCCCCC(=O)O[C@@H]1C[C@]2(C)[C@H]3CC=C4[C@@H]5CC(C)(C)CC[C@]5(C(=O)O)CC[C@@]4(C)[C@]3(C)CC[C@H]2C(C)(C)[C@H]1OC(=O)CCCCCCCCCCC	-	FRET	-	>1200 µg/mL
CC(C)[C@H](NC(=O)[C@H](C)NC(=O)OCc1ccccc1)C(=O)N[C@@H](Cc1ccccc1)[C@@H](O)[C@H](O)[C@H](Cc1ccccc1)NC(=O)[C@@H](NC(=O)[C@H](C)NC(=O)OCc1ccccc1)C(C)C	-	-	-	0.004 µM
CC[C@H](C)[C@H](NC(=O)OC(C)(C)C)C(=O)N[C@@H]1[C@H](CC(=O)N[C@H](C(=O)OC)C(C)C)CC[C@H]1O	-	absorbance	-	10 µM
CC(=O)O[C@@H]1C[C@]2(C)[C@H]3CC=C4[C@@H]5CC(C)(C)CC[C@]5(C(=O)O)CC[C@@]4(C)[C@]3(C)CC[C@H]2C(C)(C)[C@H]1OC(C)=O	-	FRET	-	>1200 µg/mL
CC(C)(C)OC(=O)N[C@@H](Cc1ccccc1)[C@H](O)CNC[C@@H](O)[C@H](Cc1ccccc1)NC(=O)OC(C)(C)C#CCCc1ccccc1	-	HPLC	pH 5.5	<10 µM
O=C(COc1ccccc1)N[C@@H](Cc1ccccc1)C[C@@H](O)[C@H](Cc1ccccc1)NC(=O)COc1ccccc1	-	fluorescence	-	17 µM
CC(=O)N[C@@H](Cc1c[nH]c2ccccc12)C(=O)N[C@H](C(=O)N[C@@H](Cc1ccccc1)[C@H](O)[C@@H](O)[C@H](Cc1ccccc1)NC(=O)[C@@H](NC(C)=O)C(C)C)C(C)C	-	substrate cleavage	-	0.005 µM
CCCC(=O)O[C@H]1CC[C@]2(C)[C@H]3CC=C4[C@@H]5CC(C)(C)CC[C@]5(C(=O)OCc5ccccc5)CC[C@@]4(C)[C@]3(C)CC[C@H]2C1(C)C	-	FRET	-	>1200 µg/mL
Cc1cc(N)cc(C)c1OCC(=O)N[C@@H](Cc1ccccc1)C[C@H](O)[C@H](Cc1ccccc1)NC(=O)O[C@@H]1CO[C@H]2OCC[C@H]21	-	-	-	<0.0005 µM
CC(C)C[C@H](NC(=O)[C@@H](NC(=O)CCCCCCCCCCCCCCC(=O)N[C@@H](CC[N+](=O)[O-])C(=O)N[C@@H](Cc1ccccc1)C(=O)O)C(C)O)C(=O)N[C@@H](Cc1ccccc1)C(N)=O	-	-	-	1.98 µM
COC(=O)[C@@H](NC(=O)C[C@@H]1CC[C@@H](O)[C@@H]1NC(=O)[C@H](C)NC(=O)OC(C)(C)C)C(C)C	-	absorbance	-	>10 µM
Cc1cc(N)c(N)c(C)c1OCC(=O)N[C@@H](Cc1ccccc1)C[C@H](O)[C@H](Cc1ccccc1)NC(=O)O[C@H]1CO[C@H]2OCC[C@H]21	-	-	-	<0.0005 µM
CC(C)[C@H](NC(=O)OCc1ccccc1)C(=O)N[C@@H](Cc1ccccc1)[C@H](O)[C@@H](O)[C@H](Cc1ccccc1)NC(=O)[C@@H](NC(=O)[C@H](Cc1c[nH]c2ccccc12)NC(=O)COc1ccccc1)C(C)C	-	substrate cleavage	-	0.015 µM
CC(C)C[C@H](NC(=O)[C@@H](NC(=O)CCCCCCCCCCCCCCC(=O)N[C@@H](CC(N)=O)C(=O)N[C@@H](Cc1ccccc1)C(=O)O)C(C)O)C(=O)N[C@@H](CCc1ccccc1)C(N)=O	-	-	-	2 µM
COC(=O)[C@@H](NC(=O)C[C@H]1CC[C@H](O)[C@H]1NC(=O)[C@H](Cc1ccccc1)NC(=O)OC(C)(C)C)C(C)C	-	absorbance	-	>10 µM
CC1(C)CC[C@]2(C(=O)OCc3ccccc3)CC[C@]3(C)C(=CC[C@@H]4[C@@]5(C)C[C@@H](OC(=O)c6ccccc6)[C@H](O)C(C)(C)[C@@H]5CC[C@]43C)[C@@H]2C1	-	FRET	-	>1200 µg/mL
CC(O)[C@H](NC(=O)CCCCCCCCCCCCCCC(=O)N[C@@H](CC(N)=O)C(=O)N[C@@H](Cc1ccccc1)C(=O)O)C(=O)N1CCC[C@H]1C(=O)N[C@@H](Cc1ccccc1)C(N)=O	-	-	-	>5.5 µM
C=CCc1ccc(O)c(-c2cc(O)ccc2O)c1	-	FRET	-	500 µM
CC(C)[C@H](NC(=O)c1cc(=O)c2ccccc2[nH]1)C(=O)N[C@@H](Cc1ccccc1)[C@H](O)[C@@H](O)[C@H](Cc1ccccc1)NC(=O)c1cc(=O)c2ccccc2o1	-	substrate cleavage	-	0.13 µM
CC(C)[C@@H](NC(=O)c1cc(=O)c2ccccc2[nH]1)C(=O)N[C@@H](Cc1ccccc1)C[C@@H](O)[C@H](Cc1ccccc1)NC(=O)[C@H](NC(=O)c1cc(=O)c2ccccc2[nH]1)C(C)C	-	fluorescence	-	0.004 µM
Cc1cc(N(C)C)cc(C)c1OCC(=O)N[C@@H](Cc1ccccc1)C[C@H](O)[C@H](Cc1ccccc1)NC(=O)O[C@H]1CO[C@H]2OCC[C@H]21	-	-	-	>0.0005 µM
CC(C)[C@H](NC(=O)O)C(=O)N[C@@H](Cc1ccccc1)[C@@H](O)[C@H](O)[C@H](Cc1ccccc1)NC(=O)[C@@H](NC(=O)O)C(C)C	-	substrate cleavage	-	0.5 µM
CC(C)(C)OC(=O)N[C@@H](Cc1ccccc1)[C@H](O)CNC[C@@H](O)[C@H](Cc1ccccc1)NC(=O)OC(C)(C)c1ccccc1	-	HPLC	pH 5.5	<10 µM
CCCCCC(=O)O[C@@H]1C[C@]2(C)[C@H]3CC=C4[C@@H]5CC(C)(C)CC[C@]5(C(=O)O)CC[C@@]4(C)[C@]3(C)CC[C@H]2C(C)(C)[C@H]1OC(=O)CCCCC	-	FRET	-	>1200 µg/mL
O=C(COc1ccccc1O)N[C@@H](Cc1ccccc1)C[C@H](O)[C@H](Cc1ccccc1)NC(=O)COc1ccccc1O	-	fluorescence	-	7 µM
Cc1ccc(NC(=O)N[C@@H](C)C(=O)N[C@H](C(=O)N[C@@H](Cc2ccccc2)C(O)C(O)[C@H](Cc2ccccc2)NC(=O)[C@@H](NC(=O)[C@H](C)NC(=O)Nc2ccc(C)cc2)C(C)C)C(C)C)cc1	-	-	-	0.16 µM
CCOC(=O)[C@]12CCC(C)(C)CC1C1=CCC3[C@@]4(C)CCC(=O)[C@@](C)(COC(=O)CCC(=O)O)C4CC[C@@]3(C)[C@]1(C)CC2	-	substrate cleavage / fluorescence	-	66.8 µM
CC(C)[C@H](NC(=O)CCc1nc2ccccc2[nH]1)C(=O)N[C@@H](Cc1ccccc1)[C@H](O)CNC[C@@H](O)[C@H](Cc1ccccc1)NC(=O)OC(C)(C)C	-	HPLC	pH 5.5	<10 µM
CC1(C)CC[C@]2(C(=O)OCc3ccccc3)CC[C@]3(C)C(=CC[C@@H]4[C@@]5(C)CC[C@H](O)C(C)(C)[C@@H]5CC[C@]43C)[C@@H]2C1	-	FRET	-	>1200 µg/mL
C[C@@H](O)[C@H](NC(=O)c1cc(=O)c2ccccc2[nH]1)C(=O)N[C@@H](Cc1ccccc1)[C@H](O)[C@@H](O)[C@H](Cc1ccccc1)NC(=O)COc1ccccc1	-	substrate cleavage	-	0.0032 µM

Again, the opening 5 rows:

| compound | changes | read by | conditions | result |
|---|---|---|---|---|
| CC[C@H](C)[C@H](NC(=O)OC(C)(C)C)C(=O)N[C@H]1CC[C@@H](CC(=O)N[C@H](C(=O)OC)C(C)C)[C@@H]1O | - | absorbance | - | >10 µM |
| CC(C)C[C@H](NC(=O)[C@@H](NC(=O)CCCCCCCCCCCCCCC(=O)N[C@@H](CCCCN)C(=O)N[C@@H](Cc1ccccc1)C(=O)O)C(C)O)C(=O)N[C@@H](Cc1ccccc1)C(N)=O | - | - | - | >5.5 µM |
| C=CCc1ccc(O)c(-c2ccc(OC)c(CC=C)c2)c1 | - | FRET | - | 1000 µM |
| CCOC(=O)[C@]12CCC(C)(C)CC1C1=CCC3[C@@]4(C)CCC(=O)[C@@](C)(CO)C4CC[C@@]3(C)[C@]1(C)CC2 | - | substrate cleavage / fluorescence | - | >100 µM |
| C=CCc1cc(-c2cc(CC(O)CO)ccc2O)ccc1O | - | FRET | - | 1000 µM |